Measured values from several laboratories, pooled; numbers as filed in NIAID ChemDB.

Common to all: growth or infection tests; agent: Candida albicans

Blank or dashed fields: not listed here.

structure | strain | setting | read-out | method | value
COC(=O)[C@H](Cc1ccc(O)cc1)NC(=O)COc1cc(=O)oc2ccccc12 |  |  | MIC |  | 12.5 µg/mL
CC(C)C(=N)CCC=C1CO[C@@](Cn2ccnc2)(c2ccc(F)cc2F)C1 | CI-2 |  | MIC |  | 100 µg/mL
C=CCc1ccc(OC)c(OC)c1 | 3036 |  | MIC90 | turbidity | 340 µg/mL
CCOC(=O)C1CC([C@H]2O[C@@H]3OC(C)(C)O[C@@H]3[C@H]2OC)=NO1 |  |  | MIC |  | >50 µg/mL
O=C(Nc1ccc2oc(-c3ccccc3)nc2c1)c1ccc([N+](=O)[O-])cc1 | RSKK 628 |  | MIC |  | 25 µg/mL
COC(=O)[C@H](C)OC(=O)[C@H](Cc1cnc[nH]1)NC(=O)CNC(=O)[C@H](Cc1cnc[nH]1)NC(=O)COc1c(Br)c(=O)oc2ccccc12 |  |  | MIC |  | 6.25 µg/mL
Cc1ccc(C(=O)Nc2ccc3oc(-c4ccccc4)nc3c2)cc1 | RSKK 628 |  | MIC |  | 25 µg/mL
CCC(C)CC(C)CCCCCCCCC(=O)N[C@H]1C[C@@H](O)[C@@H](OCCN)NC(=O)[C@@H]2C[C@@H](O)CN2C(=O)[C@H]([C@H](O)CCN)NC(=O)[C@H]([C@H](O)[C@@H](O)c2ccc(O)cc2)NC(=O)[C@@H]2C[C@@H](O)CN2C(=O)[C@H]([C@@H](C)O)NC1=O | 40 isolates |  | MIC |  | 32–64 µg/mL
c1coc(-c2n[nH]c3c2CCCC3)c1 | 264/624 |  | MIC |  | 125 µg/mL
O=C(Cc1ccccc1Cl)Nc1ccc2oc(-c3ccccc3)nc2c1 | RSKK 628 |  | MIC |  | 25 µg/mL
CC1(C)O[C@H]2O[C@H](C3=NOC(CBr)C3)[C@H](OCc3ccccc3)[C@H]2O1 |  |  | MIC |  | >50 µg/mL
COc1cc(O)c2c(c1)C(=O)c1c(cc3c(c1O)-c1c(cc(C)c(C(=O)NCC(=O)O)c1O)[C@H](OC1OC(C)C(N(C)C)C(OC4OCC(O)C(O)C4O)C1O)[C@H]3O)C2=O | IAM4888 |  | MIC |  | 6.3 µg/mL
O=C(Nc1ccc2oc(-c3ccccc3)nc2c1)c1ccccc1 | RSKK 628 |  | MIC |  | 25 µg/mL
CCOC1CC([C@H]2O[C@@H]3OC(C)(C)O[C@@H]3[C@H]2OCc2ccccc2)=NO1 |  |  | MIC |  | >50 µg/mL
CCC(C)CC(C)CCCCCCCCC(=O)N[C@H]1C[C@@H](O)[C@@H](O)NC(=O)[C@@H]2[C@@H](O)CCN2C(=O)[C@H]([C@H](O)CC(N)=O)NC(=O)[C@H]([C@H](O)[C@@H](O)c2ccc(O)cc2)NC(=O)[C@@H]2C[C@@H](O)CN2C(=O)[C@H]([C@@H](C)O)NC1=O | 40 isolates |  | MIC |  | 32 µg/mL
Clc1ccc(C(Cn2ccnc2)OCc2csc3c(Cl)cccc23)c(Cl)c1 | 63 isolates | 48 h | MIC90 | visual reading | 4 µg/mL
CC(C)C(=O)CCC[C@H]1CO[C@@](Cn2ccnc2)(c2ccc(F)cc2F)C1 | IFO. 1385 |  | MIC |  | <0.1 µg/mL
c1ccc(-c2n[nH]c3c2CCCC3)cc1 | 264/624 |  | MBC |  | 125 µg/mL
CCC(C)n1ncn(-c2ccc(N3CCN(c4ccc(OC[C@H]5CO[C@](Cn6cncn6)(c6ccc(Cl)cc6Cl)O5)cc4)CC3)cc2)c1=O | 1992 isolates |  | MIC90 |  | 0.12 µg/mL
CC(/C=C/C=C(\C)C(O)C(C)C(=O)O[C@H]1C[C@@H](C)C=C2C=C[C@]3(C)O[C@@H](O)CC(=O)[C@]3(C)[C@H]21)=C\C=C\C(=O)O | AC3412 |  | MIC |  | >100 µg/mL
CO[C@@H]1[C@H]2OC(C)(C)O[C@H]2O[C@@H]1C1=NOC(CBr)C1 |  |  | MIC |  | >50 µg/mL
COC(=O)[C@H](Cc1cc2ccccc2[nH]1)OC(=O)[C@H](C)NC(=O)[C@H](Cc1cc2ccccc2[nH]1)NC(=O)COc1cc(=O)oc2ccccc12 |  |  | MIC |  | 6.25 µg/mL
CC1(C)O[C@H]2O[C@H](C3=NOC(CO)C3)[C@H](OCc3ccccc3)[C@H]2O1 |  |  | MIC |  | >50 µg/mL
CC(C)C(=N)CCC[C@H]1CO[C@@](Cn2cccc2)(c2ccc(F)cc2F)C1 | A.10231 |  | MIC |  | 100 µg/mL
CC1ON=C([C@H]2O[C@@H]3OC(C)(C)O[C@@H]3[C@H]2OCc2ccccc2)C1C(=O)O |  |  | MIC |  | >50 µg/mL
C[C@H]1[C@H](O)[C@@H](C)/C=C/C=C/C=C/C=C/C=C/C=C/C=C/[C@H](O[C@@H]2O[C@H](C)[C@@H](O)[C@H](N)[C@@H]2O)C[C@@H]2O[C@](O)(C[C@@H](O)C[C@@H](O)CC[C@H](O)[C@@H](O)C[C@@H](O)CC(=O)O[C@H]1C)C[C@H](O)[C@H]2C(=O)O | ATCC 90028 |  | MIC | broth dilution | 0.5 µM
NC(=NC1CCCC1)c1ccc(-c2ccc(-c3ccc(C(N)=NC4CCCC4)cc3)o2)cc1 | Isolate CA2601 fluconazole-resistant |  | MIC |  | 25 µg/mL
CC(C)C(=N)CCC[C@H]1CO[C@@](Cn2ccnc2)(c2ccc(F)cc2F)C1 | A.10231 |  | MIC |  | >100 µg/mL
CO[C@@H]1[C@H]2OC(C)(C)O[C@H]2O[C@@H]1C1=NOC(C#N)C1 |  |  | MIC |  | >50 µg/mL
COc1ccccc1C(=O)Nc1ccc2oc(-c3ccccc3)nc2c1 | RSKK 628 |  | MIC |  | 25 µg/mL
Cc1ccc(-c2n[nH]c3c2CCCC3)cc1 | 264/624 |  | MBC |  | 31.2 µg/mL
CO[C@@H]1[C@H]2OC(C)(C)O[C@H]2O[C@@H]1C1=NOC(C(C)=O)C1 |  |  | MIC |  | >50 µg/mL

A second listing of 2 rows from above:

structure,strain,setting,read-out,method,value
c1ccc(-c2n[nH]c3c2CCCC3)cc1,264/624,,MBC,,125 µg/mL
CO[C@@H]1[C@H]2OC(C)(C)O[C@H]2O[C@@H]1C1=NOC(C(C)=O)C1,,,MIC,,>50 µg/mL

A number after MIC or MFC names an inhibition level or a share of isolates. a–b is a range or a potency band. Lines come from different laboratories, so protocols vary.